Anti-infective test results gathered from many reports (values: NIAID ChemDB through PubChem).

Shared fields: tests on isolated targets; organism: Herpes simplex virus 1; protein: DNA polymerase

Lines come from different laboratories, so protocols vary.

COC(=O)[C@H]1[C@H](O)[C@@H](C)[C@@H](O)[C@](C)(O)/C=C(\C)C2=C3C(=C(C)C(=O)c4c(O)c(c(C)c(OC(C)=O)c43)NC(=O)/C(C)=C/C=C\[C@@H](C)C(O)[C@@H](C)[C@H]1O)OCO2 ; read-out: IC50 ; result: 220 µM
CCOP(=O)(OCC)C(=O)OC ; read-out: IC50 ; result: >35 µM
O=C(CP(=O)(O)O)OCc1ccccc1 ; read-out: IC50 ; result: 40 µg/mL
O=C(Oc1ccccc1)P(=O)(O)O ; read-out: IC50 ; result: 10 µM
O=P(O)(O)C(Br)(Br)P(=O)(O)O ; read-out: IC50 ; result: >100 µM
CCCCCCCCCC(C(=O)O)P(=O)(O)O ; read-out: IC50 ; result: 10 µM
O=C(O)C(F)(Cl)P(=O)(O)O ; read-out: IC50 ; result: >100 µM
CCOC(=O)P(=O)(O)O ; read-out: IC50 ; result: >35 µM
O=C(O)C(F)(Br)P(=O)(O)O ; read-out: IC50 ; result: 37 µM
CCCOP(=O)(O)CC(=O)O ; read-out: IC50 ; result: 200 µg/mL
CCCC(C(=O)O)P(=O)(O)O ; read-out: IC50 ; result: 200 µM
O=C(O)C(Cl)P(=O)(O)O ; dose: 100 µM ; read-out: inhibition ; result: 96%
O=C(O)CP(=O)(O)O ; read-out: IC50 ; result: 0.22 µg/mL
O=P(O)(O)C(F)(Br)P(=O)(O)O ; read-out: IC50 ; result: >100 µM
CCCOC(=O)CP(=O)(O)O ; read-out: IC50 ; result: 0.16 µg/mL

Repeating the final 2 entries:

compound,dose,read-out,result
O=P(O)(O)C(F)(Br)P(=O)(O)O,-,IC50,>100 µM
CCCOC(=O)CP(=O)(O)O,-,IC50,0.16 µg/mL

An empty or dashed field is not shown. ICn: concentration for n% inhibition. Inhibition is in % at the dose shown (toxicity tests: loss of growth or viability).